± gives the expanded uncertainty stated by the source.
Experiment: refractive index (Na D-line) (dimensionless); xn = mol fraction of the nth substance listed
Conditions: 101 kPa, Liquid, Standard Abbe refractometry

CCCCOP(=O)(OCCCC)OCCCC [tributyl phosphate] + CCCCO
refractive index
Conditions | 303.15 K | 308.15 K | 313.15 K | 318.15 K | 323.15 K
x1 = 0.05 | 1.3978 ± 0.0004 | 1.3958 ± 0.0004 | 1.394 ± 0.0004 | 1.391 ± 0.0004 | 1.3887 ± 0.0004
x1 = 0.1002 | 1.4007 ± 0.0004 | 1.3989 ± 0.0004 | 1.3972 ± 0.0004 | 1.3944 ± 0.0004 | 1.3921 ± 0.0004
x1 = 0.1503 | 1.4029 ± 0.0004 | 1.4012 ± 0.0004 | 1.3996 ± 0.0004 | 1.3969 ± 0.0004 | 1.3948 ± 0.0004
x1 = 0.202 | 1.4048 ± 0.0004 | 1.4031 ± 0.0004 | 1.4015 ± 0.0004 | 1.3988 ± 0.0004 | 1.3968 ± 0.0004
x1 = 0.2502 | 1.4063 ± 0.0004 | 1.4045 ± 0.0004 | 1.4029 ± 0.0004 | 1.4004 ± 0.0004 | 1.3984 ± 0.0004
x1 = 0.3006 | 1.4078 ± 0.0004 | 1.4061 ± 0.0004 | 1.4045 ± 0.0004 | 1.4019 ± 0.0004 | 1.3999 ± 0.0004
x1 = 0.3502 | 1.4092 ± 0.0004 | 1.4074 ± 0.0004 | 1.4058 ± 0.0004 | 1.4032 ± 0.0004 | 1.4014 ± 0.0004
x1 = 0.4 | 1.4102 ± 0.0004 | 1.4084 ± 0.0004 | 1.4069 ± 0.0004 | 1.4044 ± 0.0004 | 1.4025 ± 0.0004
x1 = 0.4502 | 1.4115 ± 0.0004 | 1.4097 ± 0.0004 | 1.408 ± 0.0004 | 1.4054 ± 0.0004 | 1.4036 ± 0.0004
x1 = 0.5002 | 1.4125 ± 0.0004 | 1.4107 ± 0.0004 | 1.409 ± 0.0004 | 1.4065 ± 0.0004 | 1.4047 ± 0.0004
x1 = 0.5506 | 1.4133 ± 0.0004 | 1.4117 ± 0.0004 | 1.41 ± 0.0004 | 1.4075 ± 0.0004 | 1.4058 ± 0.0004
x1 = 0.6005 | 1.4142 ± 0.0004 | 1.4125 ± 0.0004 | 1.4109 ± 0.0004 | 1.4085 ± 0.0004 | 1.4068 ± 0.0004
x1 = 0.6502 | 1.4151 ± 0.0004 | 1.4134 ± 0.0004 | 1.4117 ± 0.0004 | 1.4093 ± 0.0004 | 1.4077 ± 0.0004
x1 = 0.7002 | 1.416 ± 0.0004 | 1.4143 ± 0.0004 | 1.4125 ± 0.0004 | 1.4101 ± 0.0004 | 1.4085 ± 0.0004
x1 = 0.7493 | 1.4168 ± 0.0004 | 1.415 ± 0.0004 | 1.4133 ± 0.0004 | 1.4109 ± 0.0004 | 1.4093 ± 0.0004
x1 = 0.8001 | 1.4176 ± 0.0004 | 1.4158 ± 0.0004 | 1.414 ± 0.0004 | 1.4117 ± 0.0004 | 1.4101 ± 0.0004
x1 = 0.8507 | 1.4183 ± 0.0004 | 1.4165 ± 0.0004 | 1.4148 ± 0.0004 | 1.4124 ± 0.0004 | 1.4109 ± 0.0004
x1 = 0.9009 | 1.4192 ± 0.0004 | 1.4174 ± 0.0004 | 1.4154 ± 0.0004 | 1.413 ± 0.0004 | 1.4116 ± 0.0004
x1 = 0.9504 | 1.4201 ± 0.0004 | 1.4182 ± 0.0004 | 1.4162 ± 0.0004 | 1.4138 ± 0.0004 | 1.4123 ± 0.0004
x1 = 1 | 1.421 ± 0.0004 | 1.419 ± 0.0004 | 1.4171 ± 0.0004 | 1.4146 ± 0.0004 | 1.4131 ± 0.0004

Reference: the NIST ThermoML archive (doi:10.1021/acs.jced.5b00343)
